Anti-infective test results gathered from many reports (values: NIAID ChemDB through PubChem).

Shared fields: tests on isolated targets; organism: HIV-1; target: gp120

ICn: concentration for n% inhibition. a–b is a range or a potency band. Neighbouring rows are from separate reports.

O=C(O)C[C@@H]1CCCN1S(=O)(=O)c1cnc(N2CCC(CCCC3CCN(S(=O)(=O)c4cc(Br)c(Cl)s4)CC3)CC2)c(Br)c1 ; method: fluorescence ; measure: IC50 ; result: 1–10 µM
NC(=O)[C@H](CCCN=C(N)N)NC(=O)[C@@H](N)Cc1ccccc1 ; method: ELISA ; measure: IC50 ; result: 240 µM
O=C(O)CCC1=C(CC(=O)O)c2cc3nc(cc4[nH]c(cc5[nH]c(cc1n2)c(CC(=O)O)c5CCC(=O)O)c(CCC(=O)O)c4CC(=O)O)C(CC(=O)O)=C3CCC(=O)O ; measure: IC50 ; result: <60 µg/mL
NC(=O)[C@H](CCCN=C(N)N)NC(=O)CNC(=O)[C@@H](N)Cc1ccccc1 ; method: ELISA ; measure: IC50 ; result: 280 µM
Cc1ccc(C(=O)Nc2ccc(S(=O)(=O)O)c3cc(S(=O)(=O)O)cc(S(=O)(=O)O)c23)cc1NC(=O)c1cccc(NC(=O)Nc2cccc(C(=O)Nc3cc(C(=O)Nc4ccc(S(=O)(=O)O)c5cc(S(=O)(=O)O)cc(S(=O)(=O)O)c45)ccc3C)c2)c1 ; method: ELISA ; measure: IC50 ; result: >500 µg/mL
NCCCC[C@H](NC(=O)[C@H](Cc1ccccc1)NC(=O)[C@@H](N)Cc1ccccc1)C(=O)N[C@@H](CCCN=C(N)N)C(N)=O ; method: ELISA ; measure: IC50 ; result: 2910 µM
O=c1c(O)cc([C@H]2Oc3cc(O)cc(O)c3C[C@H]2O)cc2c([C@H]3Oc4cc(O)cc(O)c4C[C@H]3O)cc(O)c(O)c12 ; method: ELISA ; measure: IC50 ; result: >20 µM
NS(=O)(=O)c1ccc(NC(=O)c2ccc(SSc3ccc(C(=O)Nc4ccc(S(N)(=O)=O)cc4)cc3)cc2)cc1 ; measure: IC50 ; result: >100 µM
COc1ccnc2[nH]cc(C(=O)C(=O)N3CCN(C(=O)c4ccccc4)C[C@H]3C)c12 ; measure: IC50 ; result: 0.1 µM
NC(=O)[C@H](CCCN=C(N)N)NC(=O)[C@H](Cc1ccccc1)NC(=O)[C@@H](N)Cc1ccccc1 ; method: ELISA ; measure: IC50 ; result: 550 µM
C=Cc1c(C)c2cc3nc(cc4[nH]c(cc5nc(cc1[nH]2)C(C)=C5CC)c(C)c4C(=O)O)C(CCC(=O)O)=C3C ; measure: IC50 ; result: >60 µg/mL
NC(=O)[C@H](CCCN=C(N)N)NC(=O)[C@@H]1CCCN1C(=O)[C@@H](N)Cc1ccccc1 ; method: ELISA ; measure: IC50 ; result: 340 µM
CC1=C(CCC(=O)O)c2cc3[nH]c(cc4[nH]c(cc5nc(cc1n2)C(CCC(=O)O)=C5CC(=O)O)c(CCC(=O)O)c4CC(=O)O)c(CCC(=O)O)c3CC(=O)O ; measure: IC50 ; result: >60 µg/mL
Clc1ccc(CNc2ccccc2Cn2ccnc2)cc1 ; method: fluorescence ; strain: IIIB ; measure: IC50 ; result: <10 µg/mL
NC(=O)c1ccc(C(NC(=O)c2ccc(C(NC(=O)c3ccc(C(=O)C(=O)O)cc3)(NC(=O)c3ccc(C(=O)C(=O)O)cc3)C(=O)O)cc2)(NC(=O)c2ccc(C(NC(=O)c3ccc(C(=O)C(=O)O)cc3)(NC(=O)c3ccc(C(=O)C(=O)O)cc3)C(=O)O)cc2)C(=O)O)cc1 ; method: antigen ; measure: IC50 ; result: 2 µg/mL
C1=Cc2nc1c(-c1ccncc1)c1ccc([nH]1)c(-c1ccncc1)c1nc(c(-c3ccncc3)c3ccc([nH]3)c2-c2ccncc2)C=C1 ; measure: IC50 ; result: <60 µg/mL
CN1C(=O)C(c2cc(Cl)c(O)c(Cl)c2)NC(=O)[C@@H]2NC(=O)C(c3cc(Cl)c(O)c(Cl)c3)NC(=O)[C@H](NC(=O)C(=O)c3cc(Cl)c(O)c(Cl)c3)Cc3c[nH]c4c(cccc34)-c3cc2cc(c3O)Oc2ccc(cc2)CC1C(=O)NC(C(=O)O)c1ccc(O)cc1 ; measure: IC50 ; result: 2 µM
C=Cc1c(C)c2cc3[nH]c(cc4nc(cc5nc(cc1[nH]2)C(C)=C5CCC(=O)O)C(CCC(=O)O)=C4C)c(C)c3C=C ; method: ELISA / binding ; strain: MN ; measure: IC50 ; result: ~6.25 µM
CN1C(=O)C(c2cc(Cl)c(O)c(Cl)c2)NC(=O)[C@@H]2NC(=O)C(c3cc(Cl)c(O)c(Cl)c3)NC(=O)[C@H](NC(=O)C(=O)c3cc(Cl)c(O)c(Cl)c3)Cc3c[nH]c4c(cccc34)-c3cc2cc(c3O)Oc2ccc(cc2)CC1C(=O)NC(C(=O)O)c1ccc(O)cc1 ; method: ELISA ; measure: IC50 ; result: <10 µM
O=C(O)C[C@H]1C(=O)O[C@H]2[C@H](OC(=O)c3cc(O)c(O)c(O)c3)[C@@H](OC(=O)c3cc(O)c(O)c4c3[C@H]1[C@H](O)C(=O)O4)[C@H](OC(=O)c1cc(O)c(O)c(O)c1)O[C@@H]2COC(=O)c1cc(O)c(O)c(O)c1 ; method: fluorescence ; measure: IC50 ; result: 0.2 µM
O=C(Oc1cc(O)cc2c1C[C@@H](OC(=O)c1cc(O)c(O)c(O)c1)[C@@H](c1cc(O)c(O)c(O)c1)O2)c1cc(O)c(O)c(O)c1 ; method: ELISA ; measure: IC50 ; result: >20 µM
O=C(O)[C@H](Cc1ccccc1)NS(=O)(=O)c1cnc(N2CCC(CCCCCC3CCN(S(=O)(=O)c4cc(Br)c(Cl)s4)CC3)CC2)c(Br)c1 ; method: fluorescence ; measure: IC50 ; result: <1 µM
O=S(=O)(O)c1c2ccccc2c(-c2c3nc(c(-c4c5ccccc5c(S(=O)(=O)O)c5ccccc45)c4ccc([nH]4)c(-c4c5ccccc5c(S(=O)(=O)O)c5ccccc45)c4nc(c(-c5c6ccccc6c(S(=O)(=O)O)c6ccccc56)c5ccc2[nH]5)C=C4)C=C3)c2ccccc12 ; method: ELISA ; strain: IIIB ; measure: IC50 ; result: <50 µg/mL
Cc1ncc(COP(=O)(O)O)c(C=O)c1O ; method: binding ; measure: IC50 ; result: >100 µM
Cc1cn([C@H]2C[C@H](N=[N+]=[N-])[C@@H](CO)O2)c(=O)[nH]c1=O ; method: ELISA ; measure: IC50 ; result: >100 µg/mL
CC(C)[C@H](NC(=O)[C@H](Cc1ccccc1)NC(=O)[C@@H](N)Cc1ccccc1)C(=O)N[C@@H](CCCN=C(N)N)C(N)=O ; method: ELISA ; measure: IC50 ; result: 920 µM
COc1ccnc2[nH]cc(C(=O)C(=O)N3CCN(C(=O)c4ccccc4)C[C@H]3C)c12 ; method: radiometric ; strain: JR-FL ; measure: Ki ; result: 0.0249 µM
O=C(O)[C@H](Cc1ccccc1)NS(=O)(=O)c1cnc(N2CCC(CCCCC3CCN(S(=O)(=O)c4cc(Br)c(Cl)s4)CC3)CC2)c(C(F)(F)F)c1 ; method: fluorescence ; measure: IC50 ; result: 1–10 µM
NCCCC[C@H](NC(=O)[C@@H](N)Cc1ccccc1)C(=O)N[C@@H](Cc1ccccc1)C(=O)N[C@@H](CCCN=C(N)N)C(N)=O ; method: ELISA ; measure: IC50 ; result: 1780 µM
C=Cc1c(C)c2cc3[nH]c(cc4nc(cc5nc(cc1[nH]2)C(C)=C5CCC(=O)O)C(CCC(=O)O)=C4C)c(C)c3C=C ; measure: IC50 ; result: ~60 µg/mL
NC(=O)CC[C@H](NC(=O)[C@@H](N)Cc1ccccc1)C(=O)N[C@@H](CCCN=C(N)N)C(N)=O ; method: ELISA ; measure: IC50 ; result: 610 µM
COc1ccnc2[nH]cc(C(=O)C(=O)N3CCN(C(=O)c4ccccc4)C[C@H]3C)c12 ; measure: IC50 ; result: ~0.1 µM
O=S(=O)(O)c1c2ccccc2c(-c2c3nc(c(-c4c5ccccc5c(S(=O)(=O)O)c5ccccc45)c4ccc([nH]4)c(-c4c5ccccc5c(S(=O)(=O)O)c5ccccc45)c4nc(c(-c5c6ccccc6c(S(=O)(=O)O)c6ccccc56)c5ccc2[nH]5)C=C4)C=C3)c2ccccc12 ; method: ELISA ; strain: IIIB ; measure: IC50 ; result: <50 µg/mL
CCCCCCC[C@H]1CC2CCC3C(C(=O)OCCCCCCCCCC4N=C(N)N5CCCC5=C4C(=O)OCCCCN=C(N)N)=C(C)NC(=N1)N23 ; measure: IC50 ; result: 25 µM
COC(=O)C(=O)N1CCC[C@@H]1C(=O)N[C@H](Cc1ccccc1)C(=O)OCc1ccccc1 ; setting: 10% FBS ; method: ELISA ; measure: IC50 ; result: >500 µM
CCCCCCCCCC1N=C(N)N2CCCC2=C1C(=O)OCCCCN=C(N)N ; measure: IC50 ; result: >100 µM
CC[C@H](C)[C@H](NC(=O)[C@@H](N)CC(N)=O)C(=O)N1CCC[C@H]1C(=O)N[C@@H](Cc1c[nH]c2ccccc12)C(=O)N[C@@H](CO)C(=O)N[C@@H](CCC(=O)O)C(=O)N[C@@H](C)C(=O)O ; method: ELISA ; strain: HXB2 ; measure: IC50 ; result: >500 µM
COC(=O)C(=O)N1CCC[C@@H]1C(=O)N[C@H](Cc1ccccc1)C(=O)OCc1ccccc1 ; method: ELISA ; measure: IC50 ; result: >400 µg/mL
NC(=O)[C@H](CCCN=C(N)N)NC(=O)[C@H](Cc1c[nH]c2ccccc12)NC(=O)[C@@H](N)Cc1ccccc1 ; method: ELISA ; measure: IC50 ; result: 310 µM
O=C(O)C[C@@H]1C(=O)O[C@H]2[C@@H]3OC(=O)c4cc(O)c(O)c(O)c4-c4c(cc(O)c(O)c4O)C(=O)OC[C@H]2O[C@@H](OC(=O)c2cc(O)c(O)c(O)c2)[C@@H]3OC(=O)c2cc(O)c(O)c3c2[C@H]1[C@H](O)C(=O)O3 ; method: fluorescence ; measure: IC50 ; result: 0.2 µM
O=C(O)[C@H](Cc1ccccc1)NS(=O)(=O)c1cnc(N2CCC(CCCCCCCC3CCN(S(=O)(=O)c4cc(Br)c(Cl)s4)CC3)CC2)c(Br)c1 ; method: fluorescence ; measure: IC50 ; result: <1 µM
COc1cccc2[nH]cc(C(=O)C(=O)N3CCN(C(=O)c4ccccc4)C[C@H]3C)c12 ; method: ELISA ; strain: JR-FL ; measure: IC50 ; result: 0.28 µM
COc1ccnc2[nH]cc(C(=O)C(=O)N3CCN(C(=O)c4ccccc4)C[C@H]3C)c12 ; method: radiometric ; strain: ADA ; measure: IC50 ; result: >50 µM
CN1C(=O)C(c2cc(Cl)c(O)c(Cl)c2)NC(=O)[C@@H]2NC(=O)C(c3cc(Cl)c(O)c(Cl)c3)NC(=O)[C@H](NC(=O)C(=O)c3cc(Cl)c(O)c(Cl)c3)Cc3c[nH]c4c(cccc34)-c3cc2cc(c3O)Oc2ccc(cc2)CC1C(=O)NC(C(=O)O)c1ccc(O)cc1 ; method: ELISA ; strain: IIIB ; measure: IC50 ; result: 0.31 µM
O=C(O)CN(CCc1ccc(F)cc1)S(=O)(=O)c1cnc(N2CCC(CCCC3CCN(S(=O)(=O)c4cc(Br)c(Cl)s4)CC3)CC2)c(Br)c1 ; method: fluorescence ; measure: IC50 ; result: <1 µM